Data source: PubChem BioAssay AID1224833 (University of Georgia, 2016)
The whole screen tested about 12,000 reagents; this is a random part of them. About 5,600 of all reagents (46%) were called active. 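Active calls cover z-scores past 1 in both directions, so they include lowered as well as raised rotavirus replication.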 Entries without a mark were called inactive. The numbers tell different reagents against one gene apart. No sequences are given here.

- Purpose: 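Human genes whose knock-down alters rotavirus replication in monkey cells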 (primary screen)
- System: monkey MA104 kidney cells
- Reagent: siRNA pool against human genes, 50 nM
- Duration: 48 h knock-down before infection; read 24 h after infection
- Treatment: infection with rotavirus strain RV3 two days after transfection; infectious dose for this stage not given
- Measured: 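z-score of rotavirus antigen signal per well, from a fluorescent immunoassay, relative to non-targeting control wells on the same plate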
- Reading the numbers: z-score vs non-targeting control: higher = more rotavirus replication than with non-targeting control
- Rule for the call: In these data the active calls have z-score vs non-targeting control at about -1 or lower, or at about 1 or higher
- Calls: active = z-score beyond 1 either way; inactive = z-score within 1 of zero

What did the screen give for OR56A3 (olfactory receptor family 56 subfamily A member 3)?
z-score vs non-targeting control: -1.16 (active)

With TRAT1 (T cell receptor associated transmembrane adaptor 1), how do the results read?
z-score vs non-targeting control: -0.797

For ASPM (assembly factor for spindle microtubules), what does the deposit list?
z-score vs non-targeting control: 0.206

For DERL3 (derlin 3), how do the results read?
z-score vs non-targeting control: 0.794

For FFAR2 (free fatty acid receptor 2), what does the deposit list?
z-score vs non-targeting control: 3 (active)

What is on record for SIAE (sialic acid acetylesterase)?
z-score vs non-targeting control: -0.553

What did the screen give for ZNF599 (zinc finger protein 599)?
z-score vs non-targeting control: 0.582

With NEBL (nebulette) #1, how do the results read?
z-score vs non-targeting control: 0.611

With NEBL (nebulette) #2, how do the results read?
z-score vs non-targeting control: -1.58 (active)

For IL22RA1 (interleukin 22 receptor subunit alpha 1), what does the deposit list?
z-score vs non-targeting control: 1.02 (active)

What did the screen give for INO80D (INO80 complex subunit D)?
z-score vs non-targeting control: -1.69 (active)

With RBL2 (RB transcriptional corepressor like 2), what was measured?
z-score vs non-targeting control: -1.19 (active)

For EMC8 (ER membrane protein complex subunit 8), how do the results read?
z-score vs non-targeting control: -0.979

How did the screen score MRGPRD (MAS related GPR family member D)?
z-score vs non-targeting control: -1.81 (active)

For H1-2 (H1.2 linker histone, cluster member), how do the results read?
z-score vs non-targeting control: 0.97

Which result is listed for TNFRSF10A (TNF receptor superfamily member 10a)?
z-score vs non-targeting control: -0.63

How did the screen score LRRC3 (leucine rich repeat containing 3)?
z-score vs non-targeting control: -2.74 (active)

For RGN (regucalcin), what does the deposit list?
z-score vs non-targeting control: -1.94 (active)

What is on record for DICER1 (dicer 1, ribonuclease III)?
z-score vs non-targeting control: -0.218

For OSM (oncostatin M), what was measured?
z-score vs non-targeting control: -0.596

What is on record for ACBD4 (acyl-CoA binding domain containing 4)?
z-score vs non-targeting control: -2.44 (active)

For TYW5 (tRNA-yW synthesizing protein 5), what was measured?
z-score vs non-targeting control: -0.635

For POTED (POTE ankyrin domain family member D), what does the deposit list?
z-score vs non-targeting control: 0.378

For PRSS55 (serine protease 55), what was measured?
z-score vs non-targeting control: 0.285

With TTLL11 (tubulin tyrosine ligase like 11), how do the results read?
z-score vs non-targeting control: 0.163

With ELOVL3 (ELOVL fatty acid elongase 3), what was measured?
z-score vs non-targeting control: -0.838

Which result is listed for SLC52A3?
z-score vs non-targeting control: -1.88 (active)

Which result is listed for AFDN (afadin, adherens junction formation factor)?
z-score vs non-targeting control: 0.0064

What is on record for RUSC1 (RUN and SH3 domain containing 1)?
z-score vs non-targeting control: -1.53 (active)

How did the screen score PKP1 (plakophilin 1)?
z-score vs non-targeting control: -1 (active)

With TMEM119 (transmembrane protein 119), how do the results read?
z-score vs non-targeting control: -1.22 (active)

What did the screen give for DBP (D-box binding PAR bZIP transcription factor)?
z-score vs non-targeting control: -0.594

Which result is listed for LGI4 (leucine rich repeat LGI family member 4)?
z-score vs non-targeting control: -0.198

Which result is listed for ZNF142 (zinc finger protein 142)?
z-score vs non-targeting control: 0.998

How did the screen score TECR (trans-2,3-enoyl-CoA reductase)?
z-score vs non-targeting control: -0.15

What did the screen give for NPTXR (neuronal pentraxin receptor)?
z-score vs non-targeting control: -6.17 (active)

For CTNNB1 (catenin beta 1), what does the deposit list?
z-score vs non-targeting control: -0.823

With ESYT3 (extended synaptotagmin 3), how do the results read?
z-score vs non-targeting control: -1.57 (active)

Which result is listed for CADPS (calcium dependent secretion activator)?
z-score vs non-targeting control: -0.574

With KDELR1 (KDEL endoplasmic reticulum protein retention receptor 1), what does the deposit list?
z-score vs non-targeting control: -0.404

With ZNF426 (zinc finger protein 426), how do the results read?
z-score vs non-targeting control: 0.0205

What did the screen give for RPP38 (ribonuclease P/MRP subunit p38)?
z-score vs non-targeting control: -2.76 (active)

What did the screen give for RLBP1 (retinaldehyde binding protein 1)?
z-score vs non-targeting control: 1.02 (active)

Which result is listed for FCHSD1 (FCH and double SH3 domains 1)?
z-score vs non-targeting control: -0.173

With PELO (pelota mRNA surveillance and ribosome rescue factor), what was measured?
z-score vs non-targeting control: 0.296

What is on record for DAG1 (dystroglycan 1)?
z-score vs non-targeting control: -1.43 (active)

For LCE5A (late cornified envelope 5A), what was measured?
z-score vs non-targeting control: 0.0904

What did the screen give for SH3D19 (SH3 domain containing 19)?
z-score vs non-targeting control: -0.786

What did the screen give for PIR (pirin)?
z-score vs non-targeting control: 2.26 (active)

How did the screen score CIMAP1A (ciliary microtubule associated protein 1A)?
z-score vs non-targeting control: 0.872

What is on record for ALOX5 (arachidonate 5-lipoxygenase)?
z-score vs non-targeting control: -0.937

What is on record for CALML3 (calmodulin like 3)?
z-score vs non-targeting control: -1.03 (active)

For NDUFS3 (NADH:ubiquinone oxidoreductase core subunit S3), how do the results read?
z-score vs non-targeting control: 0.66

For SART3 (spliceosome associated factor 3, U4/U6 recycling protein), how do the results read?
z-score vs non-targeting control: -0.919

With MAT1A (methionine adenosyltransferase 1A), what does the deposit list?
z-score vs non-targeting control: -1.04 (active)

For MOV10 (Mov10 RNA helicase), what was measured?
z-score vs non-targeting control: -0.662

With TBL1Y (transducin beta like 1 Y-linked), how do the results read?
z-score vs non-targeting control: -1.51 (active)

With FCMR (Fc mu receptor), what was measured?
z-score vs non-targeting control: -1.27 (active)

With SLC26A10P, what was measured?
z-score vs non-targeting control: -1.54 (active)

Which result is listed for OSBPL2 (oxysterol binding protein like 2)?
z-score vs non-targeting control: 1.29 (active)

Not a retest: 7 of the entries above.
TTLL11 (tubulin tyrosine ligase like 11) → z-score vs non-targeting control = 0.163
ELOVL3 (ELOVL fatty acid elongase 3) → z-score vs non-targeting control = -0.838
SLC52A3 → z-score vs non-targeting control = -1.88 (active)
AFDN (afadin, adherens junction formation factor) → z-score vs non-targeting control = 0.0064
RUSC1 (RUN and SH3 domain containing 1) → z-score vs non-targeting control = -1.53 (active)
PKP1 (plakophilin 1) → z-score vs non-targeting control = -1 (active)
TMEM119 (transmembrane protein 119) → z-score vs non-targeting control = -1.22 (active)
